# The list shows a part of the results, in another mix than the full data. Activity calls are given as the source filed them. Cut-off read from the data, not from the text of the source: active = inhibition above about 30%; inconclusive = no clear call, values can overlap the other calls; inactive = below that.
# The chains behind the UniProt entries cited, without tags or fusion partners.
# UniProt P15917, whole entry, looked up: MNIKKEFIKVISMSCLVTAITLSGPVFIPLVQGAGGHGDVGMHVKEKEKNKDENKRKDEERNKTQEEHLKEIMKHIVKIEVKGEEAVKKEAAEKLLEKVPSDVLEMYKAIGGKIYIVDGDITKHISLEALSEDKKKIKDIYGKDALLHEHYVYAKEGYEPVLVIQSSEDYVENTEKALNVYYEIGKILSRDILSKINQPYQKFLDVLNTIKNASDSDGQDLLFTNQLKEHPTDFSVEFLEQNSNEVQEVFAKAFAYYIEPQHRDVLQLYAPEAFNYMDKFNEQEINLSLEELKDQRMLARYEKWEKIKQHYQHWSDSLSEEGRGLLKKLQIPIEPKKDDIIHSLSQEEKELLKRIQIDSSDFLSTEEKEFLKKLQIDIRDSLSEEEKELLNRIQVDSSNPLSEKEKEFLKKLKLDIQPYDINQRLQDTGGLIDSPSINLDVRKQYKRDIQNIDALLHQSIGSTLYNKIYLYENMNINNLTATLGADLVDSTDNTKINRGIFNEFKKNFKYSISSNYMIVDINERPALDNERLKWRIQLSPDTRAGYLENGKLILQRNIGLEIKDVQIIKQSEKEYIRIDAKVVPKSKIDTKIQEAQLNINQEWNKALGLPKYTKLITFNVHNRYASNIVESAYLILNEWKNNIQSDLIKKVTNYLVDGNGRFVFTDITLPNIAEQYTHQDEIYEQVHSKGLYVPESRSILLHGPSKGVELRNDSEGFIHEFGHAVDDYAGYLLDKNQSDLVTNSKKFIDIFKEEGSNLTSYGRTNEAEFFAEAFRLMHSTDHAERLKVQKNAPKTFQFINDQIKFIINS
# Target: Lethal factor (Bacillus anthracis) (UniProt P15917)
# Assay: Bacillus anthracis LF protease inhibitors, primary screen, biochemical, multiplex microsphere, MLPCN library (AID 588501); note: plate controls were buffer without enzyme for full effect and enzyme alone for no effect
# Details: multiplex microsphere protease cleavage assay, at 10 µM, active compounds read high
row,SMILES,inhibition
1,Nc1cccc2c([As](=O)(O)O)cccc12,inactive: 16.6%
2,Nc1ccccc1[As](=O)(O)c1ccccc1,inactive: 1.7%
3,O=C(O)COc1ccc([As](=O)(O)O)cc1[N+](=O)[O-],inactive: 9.4%
4,CCOP1(=S)c2c(C)nn(CCC#N)c2N=C(c2ccccc2F)N1C (configuration not stated),inactive: 0.7%
5,O=P(Nc1nccs1)(c1ccccc1)c1nc2ccccc2s1 (configuration not stated),inactive: 4.8%
6,O=P(Nc1nccs1)(Oc1ccccc1)Oc1ccccc1,inactive: 0%
7,CN(C)C(=O)c1cc([N+](=O)[O-])cc2c1-c1c(cc([N+](=O)[O-])cc1[N+](=O)[O-])C2=O,inactive: -1.5%
8,O=[N+]([O-])c1ccc2c(c1)nnn2O,inactive: -2.8%
9,CN(C(=O)Cc1ccc(Cl)c(Cl)c1)[C@H]1CC[C@@]2(CCCO2)C[C@@H]1N1CCCC1,inactive: -13.3%
10,N#CCCN(C(=O)COC(=O)C(O)(c1ccccc1)c1ccccc1)c1ccc(F)cc1,inactive: -56.8%
11,CCOP1(=S)c2c(C)nn(CCC#N)c2N=C(c2ccc(F)cc2)N1C (configuration not stated),inactive: -2.6%
12,CN(C(=O)Cc1ccccc1)[C@@H]1CC[C@]2(CCCO2)C[C@H]1N1CCCC1,inactive: -4.7%
13,NC(=O)Nc1ccc([As](=O)(O)O)cc1,inactive: -5.3%
14,O=C(/C=C/c1ccccc1)OC1CN2CCC1CC2 (configuration not stated),inactive: -2.4%
15,CCCC1OP(=O)(Nc2ccccc2)OCC1CC (configuration not stated),inactive: -0.2%
16,Cc1nn(-c2ccccc2)c2c1P(=O)(N1CCOCC1)N(C)C(c1ccccc1)=N2 (configuration not stated),inactive: 3.9%
17,CC1CCC(C(C)C)C(OP(=O)(Nc2ccccn2)c2ccccc2)C1 (configuration not stated),inactive: 4%
18,Cc1ccc(C(=O)OC2CN3CCC2CC3)cc1 (configuration not stated),inactive: 13.2%
19,O=P1(Nc2ccc(Br)cn2)COc2ccccc2OC1,inactive: -1.2%

row,SMILES,inhibition
1,NS(=O)(=O)c1cccc(NC(=O)COC(=O)C(O)(c2ccccc2)c2ccccc2)c1,inactive: -2.5%
2,Cc1ccc(OCC(=O)OC2CN3CCC2CC3)cc1 (configuration not stated),inactive: -1.3%
3,O=[As](O)(c1cccs1)c1cccs1,inactive: 4.6%
4,Nc1cccc([As](=O)(O)c2ccccc2)c1,inactive: 5.5%
5,O=P1(Nc2ncccn2)COc2ccccc2OC1,inactive: -1%
6,Cc1ccc(S(=O)(=O)N(CCCN)CCCc2c(C)nc(N)[nH]c2=O)cc1,inactive: -1.5%
7,O=P1(N(CCCl)CCCl)NCCC(C(F)(F)F)O1 (configuration not stated),inactive: -8.9%
8,Clc1n[nH]nc1-c1nn[nH][15n]1,inactive: -226%
9,CC(C)(C)C(=O)NC(Sc1ncccn1)C(Cl)(Cl)Cl (configuration not stated),inactive: 0.1%
10,CN(CCCl)Cc1cc(Cl)c(NC2=NCCN2)c(Cl)c1,inactive: -3.6%
11,CCOP(=O)(Nc1ccc(C)cn1)OCC,inactive: -3.2%
12,O=P1(Nc2ccccn2)COc2ccccc2OC1,inactive: 1%
13,CCC1=CC2Cc3nc4ccc(Cl)cc4c(N)c3C(C1)C2 (configuration not stated),inactive: 3.9%
14,CCOP(=O)(NC(=NC(C)c1ccccc1)NC(C)c1ccccc1)OCC (configuration not stated),inactive: 4.7%
15,CC1(CBr)Cn2c(nc3ccccc3c2=O)S1 (configuration not stated),inactive: -0.7%
16,CC(C)/C=N\N=C(\N)N[N+](=O)[O-],inactive: 0.4%
17,CN(C(=O)Cc1ccc(Cl)c(Cl)c1)[C@@H]1CCCC[C@H]1N1CCCC1,inactive: 0.4%
18,COc1ccccc1CNC(=O)COC(=O)C(O)(c1ccccc1)c1ccccc1,inactive: 3.3%

# Source: PubChem BioAssay AID588501 (NMMLSC, 2011)
